For at least one entry, the source does not settle the construct or the ends of the probe. At least one result comes from cells or an extract, where the contact may be indirect. For some of these results: At least one verdict was read from the data and is not stated in words by the source.
Experiments:
[1] = tested on: USF-1 + USF-2; test: competition EMSA; settings: 5% nondenaturing PAGE in 0.5x TBE (25 mM Tris-HCl, 25 mM boric acid, 0.5 mM EDTA), HeLa nuclear extracts, toxin B 0.5 h, protein in an extract
[2] = tested on: USF-1 + USF-2; test: EMSA supershift; settings: toxin B-treated HeLa nuclear extract, anti-USF-1 or anti-USF-2; 5% nondenaturing PAGE in 0.5x TBE (25 mM Tris-HCl, 25 mM boric acid, 0.5 mM EDTA); HeLa nuclear extracts, toxin B 0.5 h; protein in an extract; label: 32P (unlabeled as competitor)
[3] = 100-fold excess cold probe vs labeled GILZ -63/-37, competes, label: none (cold competitor)

| Sequence | binding result [1, 3] | binding result [2] | binding result ([1]; 100-fold excess cold self-competitor abrogates binding, label: 32P (unlabeled as competitor)) |
| --- | --- | --- | --- |
| CCCCTGACGCCATGTGGTATAGCCGG (double strand) [CRE II mut] | binds | – | – |
| CCCCTTGCGCCATGTGACGCAGCCGG (double strand) [CRE I mut] | binds | – | – |
| CCCCTGACGCCATGTGACGCAGCCGG (double strand) [GILZ -63/-37] | – | binds | binds |

Reference: paper PMC3392236
